In paper PMC8025907:

How the values were obtained:
[1] = target: T1, His6-BfmR (Pseudomonas aeruginosa MPAO1) (UniProt Q9HWS7); test: EMSA; conditions: 50 mM acetyl phosphate, 5 mM Mg2+, 10 mM Tris-Cl pH 8.0, 1 mM DTT, 10% glycerol, 5 mM MgCl2, 10 mM KCl, EMSA 30 min at 37 C, footprinting 30 min at room temperature, recombinant protein
T1 sequence: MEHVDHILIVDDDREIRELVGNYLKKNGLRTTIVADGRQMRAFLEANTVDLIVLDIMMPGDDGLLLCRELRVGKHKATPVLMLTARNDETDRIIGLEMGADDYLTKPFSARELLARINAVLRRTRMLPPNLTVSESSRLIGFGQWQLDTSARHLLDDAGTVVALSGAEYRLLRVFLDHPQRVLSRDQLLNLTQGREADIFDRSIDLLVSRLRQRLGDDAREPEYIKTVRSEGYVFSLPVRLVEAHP

[2] = target: T1, His6-BfmR (Pseudomonas aeruginosa MPAO1); test: DNase I footprinting; conditions: 50 mM acetyl phosphate, 5 mM Mg2+, 10 mM Tris-Cl pH 8.0, 1 mM DTT, 10% glycerol, 5 mM MgCl2, 10 mM KCl, footprinting 30 min at room temperature, recombinant protein, probe letters rebuilt from the primers and the genome
[3] = target: CzcR-His6 (Pseudomonas aeruginosa MPAO1) (UniProt G3XD16); test: EMSA; conditions: 50 mM acetyl phosphate, 5 mM Mg2+, 10 mM Tris-Cl pH 8.0, 1 mM DTT, 10% glycerol, 5 mM MgCl2, 10 mM KCl, EMSA 30 min at 37 C, footprinting 30 min at room temperature, recombinant protein, residues 1-224, protein details: C-terminal His6 (pET22b), label: FAM on forward primer (footprinting), none (EMSA), probe letters rebuilt from the primers and the genome
[4] = target: CzcR-His6 (Pseudomonas aeruginosa MPAO1) (UniProt G3XD16); test: DNase I footprinting; conditions: 18 uM protein (or as indicated), 50 mM acetyl phosphate, 5 mM Mg2+, 10 mM Tris-Cl pH 8.0, 1 mM DTT, 10% glycerol, 5 mM MgCl2, 10 mM KCl, footprinting 30 min at room temperature, recombinant protein, residues 1-224, protein details: C-terminal His6 (pET22b), label: FAM on forward primer (footprinting), none (EMSA), probe letters rebuilt from the primers and the genome

Sequence: GTTACATTTCGGGCGTTGCCTGGATAGAATCCTGGAAATGTAATTTCATATCGTTGCGCTGCTTCGATGATAATTATCGAATGACCGGGTAGTTCTCCCGGGAGACCGCCTGAGAACTTTGGAAATGTCCGCGGCGCAAGCACCGCTGGGCGTGAGGGGCAATGCCTTTTGTAAGCGCATGTTGCTTTTGTCCCTATGTTTCATCCAACTATTGCCAGTCTCTTCGAAGGTTGCCGAAGTGTAACCGCTAATTGTCCGTGGAGAATATTCATTACCGACTTGTAATTCTTCCGTCACCTTGCCGATAAGCCCCGCTACCTAACATCTGCCGCATCCCGGAAGTGCAACTTCGAATATCGCCGGCGAGATATC (double strand) [czcR-p1]
- binding result ([1]; protein details: N-terminal His6, label: FAM on forward primer (footprinting), none (EMSA), probe letters rebuilt from the primers and the genome): binds
- binding result ([2]; 6 uM protein, protein details: N-terminal His6, label: FAM on forward primer (footprinting), none (EMSA)): binds

Sequence: AGCGCCAGGTGGATTCTGTTCATCGCGTCTCTCTCCTGTGTCTTCAGGTGGAGCGTTCGCCGCCCGCAGGGACGGCACCGGAACCTGTTGAGCATAGCTCCGCCGCGGGCAGTCGGCGGAAACTACGCCGTTGTGTCACATACCTGACACAATTTCGTTATCTAATGCGGCGCAAGACAGATCGACCCGAGGCAAGACCATGGTTGGCAAGACAATCCTCATCGTTGATGACGAAGCACCGATTCGCGAGATGATCGCCGTGGCCCTGGAGATGGCCGGCTACGAGTGCCTGGAGGCGGAAAATACCCAGCAGGCGCACGCGGTGATCGTCGACCGCAA (double strand) [phoB promoter]
- binding result ([2]; 6 uM protein, protein details: N-terminal His6, label: FAM on reverse primer): binds

Sequence: GGCAGATGTTAGGTAGCGGGGCTTATCGGCAAGGTGACGGAAGAATTACAAGTCGGTAATGAATATTCTCCACGGACAATTAGCGGTTACACTTCGGCAACCTTCGAAGAGACTGGCAATAGTTGGATGAAACATAGGGACAAAAGCAACATGCGCTTACAAAAGGCATTGCCCCTCACGCCCAGCGGTGCTTGCGCCGCGGACATTTCCAAAGTTCTCAGGCGGTCTCCCGGGAGAACTACCCGGTCATTCGATAATTATCATCGAAGCAGCGCAACGATATGAAATTACATTTCCAGGATTCTATCCAGGCAACGCCCGAAATGTAACTTTATAGCAATGCACTTAAACATTTACTTGCAAATGAATCCATACTTTATATAGGGGCGAACATGCGCATC (double strand) [czcR-p2]
- binding result [3]: binds
- binding result [4]: binds

Sequence: CGAAGATTTCCCCTTAATGGTGTGTGCATTGGCAACACGCGAGTGCCTGGCTACAGCGCGCCCCTTGTTCCGCGCTGGCCGTAAGGCGGCCCCTTTGTGTTGGGGGAATCTTGGCGATGGCAGATTGCAGCCAAATTGCATGGAGATAAATGTTTCATTACAGAGGAACTTTTTATCTCCAATGCGAATAACGCGAAAAGCCCTCTACTACGGGCCTTTCGGGTTATTCGATATGGGTAGAAATCTCAGCGCAATTTTTGCGCAATCCAGAAGTCAGCAGAAAGCCACTTGCCGGCGCCGCCGAAGAACAGCGCGAGCAACATCACCAGGTAGGTCGCGGCGAACTCGATGCCGTTGTTGACGATGGCGAAGCTTCCGCTCGACGTCAGCCAGTCGTAGTTGCCGTATTCGCGCAGGATTT (double strand) [oprO promoter]
- binding result ([1]; protein details: N-terminal His6, label: FAM on reverse primer (footprinting), none (EMSA), probe letters rebuilt from the primers and the genome): binds
- binding result ([2]; protein details: N-terminal His6, label: FAM on reverse primer (footprinting), none (EMSA)): binds

Sequence: CGGCCAAGAGATTTGGCTCCTTGCATATTATAAGAACCCCAACACTTCCCGTCGTACCTTGAATGCCCCGCCTAGCGGAGAGGCATGAATACGCTCCGTTTTATTGATTTTCAAAGCCATGAGCACGGAGTCGATTTTATAATAATCAGGATTATCCGACGTGCGCTGATTCGCAGAGCGAGTCGGCTTCCGCCAATTAATCCAGCCTTCTTTAGAAGCGGAACAAAAGTACCAGTTTTATTATTCGAGGCCTTCCCTGAAAACGAACGAGACTTGCACTTCTTTAATCTCCATACGCACTTTCCGAAACAGCAGGCAATGTATCAATCGTTGCCAGATCTTTCTTCCGGGCGAGCGGCCGTACAATTCGGAAAACAGTCGCGCCGAACCAG (double strand) [exsA-p]
- binding result ([1]; protein details: N-terminal His6, probe letters rebuilt from the primers and the genome): binds

Sequence: GAGCCTTTTCCTGCGTACCGAAAGAATAAAATTACAACTTGGCTACAACCTCCGGCATTGCAGGAAGCATCAGCTTAGCAATCCCGCATACCCTGTCTGGCACCTACCAGATCTTGTAGTTGAGCCGGTACGAGCGTTCTGTGTTTTATGCAATCCACATCAGCGACCAGGGATGCTGGCTATTTGAAACACTTCACGGAATGACGCTGAAAGTCTTCGCGACCTCGTCTGTCGCACCTTAACGAAAGCATTGCGAATCCATTACCGACAGGTTTCCAAAAGAAACCCGGGATGAAACTCCTATTGCCTTTCGAAAATTGGAAACGACAGGCGAACATATGTAACGCGAAATTTCACCCTACGTATAAACAATGCGCCCAGCGAATATCGCTCCCTTACCGAGCGACGAA (double strand) [phzA1-p]
- binding result [3]: binds
- binding result [4]: binds

For some of these results: Construct, isoform or probe ends are uncertain for at least one entry.
